# Tested on: E.coli DSM1116
# Settings: eight times MIC
compound,measurement,value
"COc1c(NC(=O)c2ccc(NC(=O)c3ccc(NC(=O)[C@H](Cc4c[nH]nn4)NC(=O)c4ccc(NC(=O)/C(C)=C/c5ccc(O)cc5)cc4)cc3)c(OC)c2O)ccc(C(=O)O)c1O [Compound 2, AzaHis-albicidin]",formation of resistance (FoR),10^−11

# Reference: paper PMC8580050, “Improvement of the antimicrobial potency, pharmacokinetic and pharmacodynamic properties of albicidin by incorporation of nitrogen atoms” (Chemical Science, 2021)
